A mixed list of measured activities; the numbers were collected in NIAID ChemDB.

Common to all: whole-cell or culture tests; agent: Influenza A virus; measure: EC50

a–b is a range or a potency band. Blank or dashed fields: not listed here. ECn: concentration that inhibits the pathogen or its effect by n%. Neighbouring rows are from separate reports.

SMILES	strain or isolate	cell line	read by	result
CC(=O)N[C@H]1[C@H]([C@H](O)[C@H](O)CO)OC(C(=O)O)=C[C@@H]1N=C(N)N	H1N1 A/NWS/33	MDCK	-	>100 µM
CCC	AICHI/1/68(X-31) (H3)	MDCK	-	>500 µM
CCC(CC)O[C@@H]1C=C(C(=O)O)C[C@H](N)[C@H]1NC(C)=O	Influenza A H3N2 isolate C25C	MDCK	plaque count	≤0.015 µg/mL
CCOc1nc2c(nc(N)n2[C@@H]2O[C@H](CO)[C@@H](O)[C@H]2F)c(=O)[nH]1	A/Sweden	MDCK	plaque count	28.5 µM
Nc1nc(Cl)cc(NCC2(CCO)CCC2)n1	H1N1 A/PR/8/34	MDCK	plaque count	>120 µM
Nc1nc2c(=O)[nH]cnc2n1[C@@H]1O[C@H](CO)[C@@H](O)[C@H]1F	A/Sweden	MDCK	plaque count	>100 µM
Nc1nc(Cl)cc(NCC2(CO)CC(c3ccccc3)C2)n1	H1N1 A/PR/8/34	MDCK	plaque count	3.5–6 µM
Nc1nc2c(ncn2[C@@H]2O[C@H](CO)[C@@H](O)[C@H]2F)c(=O)[nH]1	H1N1 A/Sweden/3/50	CEF	plaque count	0.5 µM
CCC(CC)[C@H](NC(C)=O)[C@@H]1[C@H](O)[C@@H](C(=O)O)C[C@H]1N=C(N)N	Influenza A/Washington/897/80 (H3N2)	MDCK	visual reading	<0.01 µM
Cc1cn([C@@H]2O[C@H](CO)[C@@H](O)[C@H]2F)c(=O)[nH]c1=O	A/Sweden	MDCK	plaque count	>100 µM
Nc1nc(Cl)cc(NCC2(CO)CC(CCCc3ccccc3)C2)n1	H1N1 A/PR/8/34	MDCK	plaque count	0.083–0.19 µM
COc1nc2c(nc(N)n2[C@@H]2O[C@H](CO)[C@@H](O)[C@H]2F)c(=O)[nH]1	A/Sweden	MDCK	plaque count	16 µM
CC(N)C12CC3CC(CC(C3)C1)C2	Influenza A H3N2 isolate 7	MDCK	ELISA	7 µg/mL
Nc1nc(Cl)cc(NCC2(CO)CC(O)C2)n1	H1N1 A/PR/8/34	MDCK	plaque count	>120 µM
Nc1ccn([C@@H]2O[C@H](CO)[C@@H](O)[C@H]2F)c(=O)n1	Recombinant A/X31	CEF	virus yield	2.5 µM
Nc1nc(Cl)cc(NCC2(CO)CC(=O)C2)n1	H1N1 A/PR/8/34	MDCK	plaque count	>120 µM
CCC(CC)[C@H](NC(C)=O)[C@@H]1[C@H](O)[C@@H](C(=O)O)C[C@H]1N=C(N)N	Influenza A/Washington/05/96 (H3N2)	MDCK	-	0.02 µM
Nc1nc(Cl)cc(NCC2(O)CCC2)n1	H1N1 A/PR/8/34	MDCK	plaque count	>130 µM
CCCC(CCC)C(NC(C)=O)C1CC(C(=O)O)CC1N=C(N)N	Influenza A/Washington/897/80 (H3N2)	MDCK	-	<0.01 µM